Measurements reported in PubChem BioAssay AID504761 (Drosophila RNAi Screening Center, 2011)
The deposit covers about 22,000 reagents; below is an unselected part of those that have a named target and a result. Over the whole deposit, 116 (0.52%) were called active. 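Calls depend on retest data that are not deposited; infection was ranked per plate without normalising between plates; the unit of the infection score is not given.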 Raw values are not corrected between plates. Names joined by + are all predicted targets of the reagent. The record does not give: the amount of reagent, the time to read-out.

Screen: 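Fly genes whose silencing reduces dengue virus type 2 infection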 (primary screen)
Cell system: D.Mel-2 cells from Drosophila
Knock-down reagent: long dsRNA against Drosophila genes
Treatment: infection with dengue virus type 2; dose and infection time not stated
Detection: 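Cells stained for dengue envelope protein and imaged; percent of infected cells per well on duplicate plates, ranked by infection, with stained nuclei counted for cell number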
Scale: infection score: higher = more virus-infected cells; cell count: higher = more cells in the well
Rule for the call: 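Low infection ranks in the two replicates (chance level up to 0.065) followed by a retest with a 1.5-fold or larger significant decrease, p below 0.05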
Calls: active = confirmed: knock-down lowers infection; inactive = not picked or not confirmed

klg [DRSC13591]
- infection score, replicate 1: 1.2
- infection score, replicate 2: 0.08
- cell count, replicate 1: 6436
- cell count, replicate 2: 6083
- outcome: inactive

klg [DRSC16978]
- infection score, replicate 1: 1.98
- infection score, replicate 2: 12.7
- cell count, replicate 1: 6378
- cell count, replicate 2: 5506
- outcome: inactive

Tmem214 [DRSC02924]
- infection score, replicate 1: 0.46
- infection score, replicate 2: 0.88
- cell count, replicate 1: 6744
- cell count, replicate 2: 6839
- outcome: active

Tmem214 [DRSC02925]
- infection score, replicate 1: 0.77
- infection score, replicate 2: 0.46
- cell count, replicate 1: 6713
- cell count, replicate 2: 6999
- outcome: inactive

Tmem214 [DRSC28172]
- infection score, replicate 1: 12.1
- infection score, replicate 2: 6.88
- cell count, replicate 1: 6650
- cell count, replicate 2: 6223
- outcome: inactive

Mlf [DRSC07472]
- infection score, replicate 1: 10.9
- infection score, replicate 2: 10.2
- cell count, replicate 1: 6402
- cell count, replicate 2: 6006
- outcome: inactive

Mlf [DRSC23495]
- infection score, replicate 1: 5.19
- infection score, replicate 2: 1.29
- cell count, replicate 1: 6433
- cell count, replicate 2: 6139
- outcome: inactive

CG42634 + CG42635 [DRSC02450]
- infection score, replicate 1: 3.07
- infection score, replicate 2: 3.21
- cell count, replicate 1: 6449
- cell count, replicate 2: 6696
- outcome: inactive

CG2955 [DRSC00552]
- infection score, replicate 1: 2.87
- infection score, replicate 2: 4.24
- cell count, replicate 1: 6105
- cell count, replicate 2: 6419
- outcome: inactive

Ndae1 [DRSC00975]
- infection score, replicate 1: 1.79
- infection score, replicate 2: 0.05
- cell count, replicate 1: 6267
- cell count, replicate 2: 6321
- outcome: inactive

Ndae1 [DRSC02770]
- infection score, replicate 1: 4.17
- infection score, replicate 2: 13.1
- cell count, replicate 1: 6156
- cell count, replicate 2: 5437
- outcome: inactive

sls [DRSC08528]
- infection score, replicate 1: 13
- infection score, replicate 2: 18.7
- cell count, replicate 1: 6749
- cell count, replicate 2: 6176
- outcome: inactive

sls [DRSC08540]
- infection score, replicate 1: 4.72
- infection score, replicate 2: 5.34
- cell count, replicate 1: 6065
- cell count, replicate 2: 6834
- outcome: inactive

sls [DRSC08670]
- infection score, replicate 1: 2.24
- infection score, replicate 2: 2.91
- cell count, replicate 1: 5991
- cell count, replicate 2: 6462
- outcome: inactive

CG30392 [DRSC22341]
- infection score, replicate 1: 0.76
- infection score, replicate 2: 4.57
- cell count, replicate 1: 6160
- cell count, replicate 2: 6832
- outcome: inactive

Ns4 [DRSC03199]
- infection score, replicate 1: 12.1
- infection score, replicate 2: 20.7
- cell count, replicate 1: 6307
- cell count, replicate 2: 5623
- outcome: inactive

Ns4 [DRSC27230]
- infection score, replicate 1: 6.85
- infection score, replicate 2: 14.3
- cell count, replicate 1: 6514
- cell count, replicate 2: 6007
- outcome: inactive

CG16989 [DRSC18535]
- infection score, replicate 1: 10.2
- infection score, replicate 2: 10.2
- cell count, replicate 1: 6082
- cell count, replicate 2: 5927
- outcome: inactive

CG16989 [DRSC29403]
- infection score, replicate 2: 1.93
- cell count, replicate 1: 340
- cell count, replicate 2: 571
- outcome: inactive

rudhira [DRSC22111]
- infection score, replicate 1: 1.77
- infection score, replicate 2: 3.88
- cell count, replicate 1: 6505
- cell count, replicate 2: 6835
- outcome: inactive

rudhira [DRSC23144]
- infection score, replicate 1: 1.12
- infection score, replicate 2: 4.51
- cell count, replicate 1: 5737
- cell count, replicate 2: 6761
- outcome: inactive

rudhira [DRSC24869]
- infection score, replicate 1: 8.3
- infection score, replicate 2: 4.23
- cell count, replicate 1: 1121
- cell count, replicate 2: 1348
- outcome: inactive

Sorted by “cell count, replicate 2” (highest first): 3 of the entries above
CG42634 + CG42635 [DRSC02450]
- infection score, replicate 1: 3.07
- infection score, replicate 2: 3.21
- cell count, replicate 1: 6449
- cell count, replicate 2: 6696
- outcome: inactive

Mlf [DRSC23495]
- infection score, replicate 1: 5.19
- infection score, replicate 2: 1.29
- cell count, replicate 1: 6433
- cell count, replicate 2: 6139
- outcome: inactive

Mlf [DRSC07472]
- infection score, replicate 1: 10.9
- infection score, replicate 2: 10.2
- cell count, replicate 1: 6402
- cell count, replicate 2: 6006
- outcome: inactive
